These results are taken from US12540165B2, “HSP fusion protein with anti-chemorepellant agent for treatment of cancer” (The General Hospital Corporation, priority 2016, dated 2026).

In test [1] the test system is Luc-ID8 ovarian cancer cells. Put plainly: Syngeneic Luc-ID8 ovarian cancer model: intraperitoneal tumor growth by bioluminescence, and survival. The class given is in vivo, C57BL/6 mice. The note with it: for median survival: Luc-ID8 tumor-bearing mice, saline 55 days; for median survival / tumor growth as recorded by bioluminescence signals: 4 μg per mouse i.p.
Test [2] has as its system ovarian cancer and mesothelioma. To be noted: previous study (Yuan J, et al. 2014); cited from earlier work.
The subject of test [3] is AE17 mouse mesothelioma cell line. Put plainly: Immune profiling by flow cytometry of spleens, lymph nodes and tumors of AE17 tumor-bearing mice. The note with it: for proportion of CD8+ T cells in total live cells / proportion of PD-1-expressing CD8+ T cells: AE17, compared to saline. The class given is in vivo, C57BL/6 mice. (In general: In flow cytometry, cells or beads pass a laser one at a time.)

The subject of test [4] is 40L mouse mesothelioma cell line. Put plainly: Immune profiling by flow cytometry of spleens and tumors of 40L tumor-bearing mice. The class given is in vivo, C57BL/6 mice. To be noted: for proportion of CD8+ T cells in total live cells / proportion of PD-1-expressing CD8+ T cells: 40L, compared to saline.
Test [5] shares this test system. Put plainly: Ex vivo restimulation with recombinant mesothelin, intracellular IFN-γ in CD8+ T cells, 40L mice. More on the design: species or system C57BL/6 mice. The note with it: splenic CD8+ T cells, compared to saline.
The subject of test [6] is AE17 mouse mesothelioma cell line. Description: AE17 intraperitoneal malignant mesothelioma model: tumor weight and survival (Example 5). The class given is in vivo, C57BL/6 mice. To be noted: compared to saline.
Test [7] concerns 40L mouse mesothelioma cell line. Put plainly: 40L intraperitoneal malignant mesothelioma model: tumor weight and survival (Example 5). The class given is in vivo, C57BL/6 mice. To be noted: compared to saline.
The subject of test [8] is Luc-40L mesothelioma cancer cells. Description: Luc-40L mesothelioma model, survival (Example 4). The class given is in vivo, C57BL/6 mice. To be noted: compared to saline, VIC-008 20 μg, AMD3100 1 μg/g body weight, once a week for four weeks.
Test [9] relates to AE17 mouse mesothelioma cell line. Put plainly: Ex vivo restimulation with recombinant mesothelin, intracellular IFN-γ in CD8+ T cells, AE17 mice. More on the design: species or system C57BL/6 mice. To be noted: compared to saline.
Setting [10] is: compared to saline, Log-rank test.
Where [11] appears, read: compared to saline, 4 treatments at 7-day intervals.

B1: VIC-007: original scFv-MtbHsp70 fusion protein: VH and VL from anti-MSLN p4 scFv fused to full length MtbHsp70 with a (G4S)3 linker (protein)
chain: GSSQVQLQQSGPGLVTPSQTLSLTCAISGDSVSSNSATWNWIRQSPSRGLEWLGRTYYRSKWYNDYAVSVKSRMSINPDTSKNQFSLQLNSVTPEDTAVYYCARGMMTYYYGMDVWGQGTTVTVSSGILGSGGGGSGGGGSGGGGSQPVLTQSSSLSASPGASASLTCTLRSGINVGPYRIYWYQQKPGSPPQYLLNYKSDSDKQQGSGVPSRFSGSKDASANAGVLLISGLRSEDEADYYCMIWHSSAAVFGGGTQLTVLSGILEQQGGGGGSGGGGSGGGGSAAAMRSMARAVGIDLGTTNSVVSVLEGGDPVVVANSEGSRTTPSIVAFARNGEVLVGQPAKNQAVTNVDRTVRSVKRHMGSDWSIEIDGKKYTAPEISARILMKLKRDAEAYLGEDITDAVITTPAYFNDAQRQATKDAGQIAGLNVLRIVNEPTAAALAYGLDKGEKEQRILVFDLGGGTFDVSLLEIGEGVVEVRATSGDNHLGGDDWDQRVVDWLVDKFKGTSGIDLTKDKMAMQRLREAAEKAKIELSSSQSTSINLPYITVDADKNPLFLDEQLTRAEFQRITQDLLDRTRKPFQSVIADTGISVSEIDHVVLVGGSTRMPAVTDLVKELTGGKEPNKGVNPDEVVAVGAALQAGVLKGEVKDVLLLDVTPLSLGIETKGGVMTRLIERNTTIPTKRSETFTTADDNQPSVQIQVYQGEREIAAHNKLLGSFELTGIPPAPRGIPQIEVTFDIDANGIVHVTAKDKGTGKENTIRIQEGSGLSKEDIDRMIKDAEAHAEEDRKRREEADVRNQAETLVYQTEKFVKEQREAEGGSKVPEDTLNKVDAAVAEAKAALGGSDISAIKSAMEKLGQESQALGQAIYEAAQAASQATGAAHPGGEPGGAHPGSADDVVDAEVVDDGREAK
modifications: fusion protein
notes: original scFv-MtbHsp70 fusion protein: VH and VL from anti-MSLN p4 scFv fused to full length MtbHsp70 with a (G4S)3 linker
In test [1], B1 returned a median survival of 60 days. Besides, the “survival of tumor-bearing mice” value in test [1] (setting [10]) was “significantly enhanced the survival”. Also, the “tumor growth as recorded by bioluminescence signals” value in test [1] (setting [11]) is recorded as “significantly slowed tumor growth”. For the same molecule, in test [2], the “control of tumor growth and survival of tumor-bearing mice” value is “achieved significant control of tumor growth and prolongation of the survival of tumor-bearing mice”.

B2: VIC-008: scFv-MtbHsp70 fusion protein (anti-MSLN scFv fused to MtbHsp70), modified from VIC-007, phenylalanine in place of valine at position 381 of MtbHsp70 (protein)
chain: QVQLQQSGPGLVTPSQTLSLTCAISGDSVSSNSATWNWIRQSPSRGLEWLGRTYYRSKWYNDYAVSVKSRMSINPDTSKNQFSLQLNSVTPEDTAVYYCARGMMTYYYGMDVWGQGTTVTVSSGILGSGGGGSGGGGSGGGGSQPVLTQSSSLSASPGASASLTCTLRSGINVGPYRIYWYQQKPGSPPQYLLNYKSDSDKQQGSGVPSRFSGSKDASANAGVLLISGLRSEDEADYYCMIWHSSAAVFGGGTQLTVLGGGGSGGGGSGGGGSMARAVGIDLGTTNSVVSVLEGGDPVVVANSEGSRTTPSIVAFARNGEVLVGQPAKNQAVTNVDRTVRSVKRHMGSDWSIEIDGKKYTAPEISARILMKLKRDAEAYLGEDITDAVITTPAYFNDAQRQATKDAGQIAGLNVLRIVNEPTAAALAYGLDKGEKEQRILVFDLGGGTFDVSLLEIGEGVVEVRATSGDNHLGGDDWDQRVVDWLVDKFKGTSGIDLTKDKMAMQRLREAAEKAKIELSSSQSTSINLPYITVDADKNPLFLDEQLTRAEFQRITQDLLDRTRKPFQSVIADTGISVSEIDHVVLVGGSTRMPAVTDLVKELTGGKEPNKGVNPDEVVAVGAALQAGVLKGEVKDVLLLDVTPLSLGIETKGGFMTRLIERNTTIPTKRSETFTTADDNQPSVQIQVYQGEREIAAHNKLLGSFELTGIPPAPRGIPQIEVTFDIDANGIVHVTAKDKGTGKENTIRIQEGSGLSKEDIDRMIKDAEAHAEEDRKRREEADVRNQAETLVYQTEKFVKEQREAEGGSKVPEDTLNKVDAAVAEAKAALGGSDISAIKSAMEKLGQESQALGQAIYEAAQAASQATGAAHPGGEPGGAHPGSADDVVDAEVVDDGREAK
modifications: fusion protein
notes: scFv-MtbHsp70 fusion protein (anti-MSLN scFv fused to MtbHsp70), modified from VIC-007, phenylalanine in place of valine at position 381 of MtbHsp70
In the case of B2, the “percentage of PD-1 expressing CD8+ T cells” value is reported as 28-47% in [3] (AE17 tumors); 5-10% in [3] (spleen and lymph nodes); 43-76% in test [4] (40L tumors). Besides, the “proportion of CD8+ T cells in total live cells” value in test [3] (lymph nodes), in test [3] (spleens), in test [3] (tumors), in test [4] (spleens) and in test [4] (tumors) was “significantly increased” each time. Further, the “proportion of PD-1-expressing CD8+ T cells” value in test [3] (lymph nodes) is reported as “no significant difference”; in test [3] (spleens), “no significant difference”; in test [3] (tumors) it was “significantly more”; in test [4] (spleens) it was “no significant difference”; in test [4] (tumors) it was “significantly more”. In addition, the “mesothelin-specific IFN-γ expression in CD8+ T cells” value in [5], in test [9] (lymph node CD8+ T cells) and in test [9] (splenic CD8+ T cells) was “significantly greater” in each case. Also, the animal survival result in test [6] and in test [7] ([…]) was “significantly prolonged” in each case. Moreover, the “total weight of intraperitoneal tumors / tumor control” value in [6] (one week after the last treatment) was “generally reduced”; in test [7] (40L, one week after the last treatment) it was “generally reduced”. In addition, the “survival of tumor-bearing mice” value in [8] is “significantly enhanced the survival”; in test [1] (compared to VIC-007, Log-rank test), “further significantly prolonged the survival”; in [1] (setting [10]), “significantly enhanced the survival”. Moreover, the median survival in [1] is 65 days. Moreover, the “tumor growth as recorded by bioluminescence signals” value in test [1] (compared to VIC-007) is given as “further significantly delayed tumor growth”; in test [1] (setting [11]) it was “significantly slowed tumor growth”.
